Several values for one entry are separate records, joined by “and”; a condition that tells them apart may be missing. Equal values may be shown once. Read-outs that look alike come from different tables or passages of the source.

For this series the following is noted: for CAI-1 (nM) in cell-free fluids: replicates.

As to `CCCCCCCCCC(=O)[C@@H](O)CC` [CAI-1, (S)-3-hydroxytridecan-4-one], the “Ave CAI-1” value by setting is: (OD600 0.5) 27 nM and 27.4709 nM; (OD600 1) 81.6428 nM; (OD600 1.2) 150.521 nM; (OD600 1.5) 208.667 nM; (OD600 2) 220 nM and 221.953 nM. Besides, the “CAI-1 (nM) in cell-free fluids” value was 32.8223 nM and 20.9533 nM and 33.3685 nM and 18.2236 nM and 31.9871 nM (OD600 0.5); 100.073 nM and 77.1014 nM and 125.493 nM and 64.4265 nM and 79.691 nM and 64.1519 nM and 71.83 nM and 70.3761 nM (OD600 1); 139.778 nM and 154.831 nM and 156.953 nM (OD600 1.2); 230.043 nM and 217.321 nM and 178.636 nM (OD600 1.5); 223.541 nM and 215.561 nM and 226.756 nM (OD600 2). Further, the “CAI-1 in cell-free culture fluids” value (OD600 < 0.5) is recorded as “undetectable”.

Source of the values: publication PMC5467912, “Asymmetric regulation of quorum-sensing receptors drives autoinducer-specific gene expression programs in Vibrio cholerae” (PLoS Genetics, 2017).
